Tested on: T. brucei parasites
Experiment: Fluorescence microscopy, uptake and subcellular localization in parasites
Format: cell-based, Trypanosoma brucei
Conditions: 5 μM

With `CN(C)c1ccc(/C=C/c2sc3ccccc3[n+]2C)cc1.[I-]` [compound 2b] the subcellular localization (30 min incubation) was “fluorescence detected in both the cytoplasm and mitochondria” and the subcellular localization (longer periods of incubation (1 h, 2 h)) was “increased colocalization in the nucleus and kinetoplast”.
